Measured values from several laboratories, pooled; numbers as filed in NIAID ChemDB.

All rows: growth or infection tests; species: HIV-2; endpoint: EC50

An empty or dashed field is not shown. Neighbouring rows are from separate reports. ECn is the concentration giving n% inhibition of infection, replication or growth.

CC(C)c1cc(=O)oc2c3c(c4c(c12)OC(C)(C)C=C4)OC(C)C(C)C3=O ; strain or isolate: ROD ; cells: CEM + CEM-SS ; result: 0.17 µM
Cc1cn([C@H]2C=C[C@@H](COP3(=O)OCc4cc(-c5ccccc5)ccc4O3)O2)c(=O)[nH]c1=O ; cells: CEM + CEM/O ; result: 0.47 µM
Nc1nc(NC2CC2)c2ncn(C3C=C[C@@H](CO)C3)c2n1 ; strain or isolate: ROD ; cells: CEM/TK- ; result: 7 µM
Cc1cccc2c1OP(=O)(OC[C@H]1O[C@@H](n3cc(C)c(=O)[nH]c3=O)C[C@@H]1N=[N+]=[N-])OC2 ; cells: CEM + CEM/O ; result: 0.013 µM
Cc1cn([C@H]2C=C[C@@H](COP3(=O)OCc4c(ccc5ccccc45)O3)O2)c(=O)[nH]c1=O ; cells: CEM + CEM TK- ; result: 0.8 µM
CC(C)c1cc(=O)oc2c3c(c4c(c12)OC(C)(C)C=C4)O[C@H](C)[C@@H](C)C3=O ; strain or isolate: ROD ; cells: CEM + CEM-SS ; result: 0.27 µM
O=C1CS(=O)(=O)OC12C1CC3CC(C1)CC2C3 ; result: >200 µg/mL
Cc1cccc2c1O[P@](=O)(OC[C@@H]1C=C[C@H](n3cc(C)c(=O)[nH]c3=O)O1)OC2 ; cells: CEM + CEM/O ; result: 0.07 µM
Cc1ccc2c(c1)COP(=O)(OC[C@H]1O[C@@H](n3cc(C)c(=O)[nH]c3=O)C[C@@H]1N=[N+]=[N-])O2 ; cells: CEM + CEM TK- ; result: 21 µM
Cc1cn([C@H]2C[C@H](N=[N+]=[N-])[C@@H](CO)O2)c(=O)[nH]c1=O ; strain or isolate: EHO ; cells: MT-2 ; result: 0.011 µM
C[C@H](Cn1cnc2c(N)ncnc21)OCP(=O)(O)O ; strain or isolate: ROD ; cells: CEM ; result: 7 µM
Cc1cn([C@H]2CC[C@H](O)[C@H]2CO)c(=O)[nH]c1=O ; cells: CEM + CEM/0 ; result: 26 µM
C=C(COCP(=O)(O)O)Cn1cnc2c(=O)[nH]c(N)nc21 ; strain or isolate: ROD ; cells: CEM ; result: 6 µM
Cc1cn([C@H]2C=C[C@@H](CO)O2)c(=O)[nH]c1=O ; strain or isolate: ROD ; cells: CEM/TK- ; result: >50 µM
CC(C)(C)NC(=O)[C@@H]1C[C@@H]2CCCC[C@@H]2CN1C[C@@H](O)[C@H](Cc1ccccc1)NC(=O)[C@H](CC(N)=O)NC(=O)c1ccc2ccccc2n1 ; strain or isolate: ROD ; cells: PBMC ; result: 0.0098 µM
COC(=O)[C@H](C)NP(=O)(OC[C@@H]1CC[C@H](n2cnc3c(N)ncnc32)O1)Oc1ccccc1 ; strain or isolate: ROD ; cells: MOLT-4/C8 + MOLT-4 ; result: 0.05 µM
Cc1cn([C@H]2C=C[C@@H](CO)O2)c(=O)[nH]c1=O ; cells: CEM + CEM TK- ; result: 15 µM
O=c1[nH]c(=O)n(/C=C/P(=O)(O)O)cc1F ; strain or isolate: ROD ; cells: CEM + CEM-SS ; result: >200 µM
C/C(=N\NC(=S)NNC(=S)c1ccc(Cl)cc1)C12CC3CC(CC(C3)C1)C2 ; strain or isolate: ROD ; cells: MT-4 ; result: >10 µM
Cc1cn([C@@H]2C[C@H](CO)[C@@H](O)C2)c(=O)[nH]c1=O ; cells: CEM + CEM/0 ; result: 0.4 µM
CC(=O)OC(OC(C)=O)c1cc(C)c2c(c1)COP(=O)(OC[C@@H]1C=C[C@H](n3cc(C)c(=O)[nH]c3=O)O1)O2 ; cells: CEM + CEM TK- ; result: 2 µM
Cc1cn(Cc2nc(C)n(C)n2)c(=O)[nH]c1=O ; strain or isolate: ROD ; cells: MT-4 ; result: >53 µg/mL
Cc1cn([C@H]2C[C@H](N=[N+]=[N-])[C@@H](CO)O2)c(=O)[nH]c1=O ; strain or isolate: ROD ; cells: MT-4 ; result: 0.00071 µg/mL
CC(C)=CCN1Cc2cc(Cl)cc3[nH]c(=S)n(c23)C[C@@H]1C ; strain or isolate: ROD ; cells: PBMC ; result: >6.25 µM
CCSC[C@H]1O[C@@H](n2cc(C)c(=O)[nH]c2=O)C[C@@H]1N=[N+]=[N-] ; strain or isolate: ROD ; cells: MT-4 ; result: 0.93 µg/mL
Nc1nc2c(ncn2C2C=C[C@@H](CO)C2)c(=O)[nH]1 ; strain or isolate: ROD ; cells: CEM/TK- ; result: 3.7 µM
COc1cccc2c1OP(=O)(OC[C@H]1O[C@@H](n3cc(C)c(=O)[nH]c3=O)C[C@@H]1N=[N+]=[N-])OC2 ; cells: CEM + CEM TK- ; result: >100 µM
O=C(NCc1ccc(F)cc1)c1nc(N2CCCCS2(=O)=O)c2cccnc2c1O ; result: <0.008 µM
O=c1[nH]c(=O)n(/C=C\P(=O)(O)O)cc1F ; strain or isolate: ROD ; cells: CEM + CEM-SS ; result: >200 µM
Cc1cccc2c1OP(=O)(OC[C@H]1[C@H](n3cc(C)c(=O)[nH]c3=O)CC[C@@H]1O)OC2 ; cells: CEM + CEM/0 ; result: 125 µM
COC(=O)[C@H](C)NP(=O)(OC[C@@H]1C=C[C@H](n2cc(C)c(=O)[nH]c2=O)O1)Oc1ccccc1 ; cells: CEM ; result: 0.075 µM
Cc1cn([C@H]2C=C[C@@H](COP3(=O)OCc4cccc(-c5ccccc5)c4O3)O2)c(=O)[nH]c1=O ; cells: CEM + CEM/O ; result: 0.27 µM
c1ccc(CNCc2ccc(CN3CCCNCCNCCCNCC3)cc2)nc1 ; strain or isolate: ROD ; result: 0.01 µg/mL
Cc1cn([C@H]2C[C@H](N=[N+]=[N-])[C@@H](COP3(=O)OCc4ccccc4O3)O2)c(=O)[nH]c1=O ; cells: CEM + CEM/O ; result: 0.005 µM
COC(=O)N[C@H](C(=O)N[C@@H](Cc1ccccc1)[C@@H](O)CN(Cc1ccc(-c2ccccn2)cc1)NC(=O)[C@@H](NC(=O)OC)C(C)(C)C)C(C)(C)C ; strain or isolate: ROD ; cells: MT-2 ; result: 0.027 µM
O=C1O[C@H]2[C@@H]3OC(=O)c4cc(O)c(O)c(O)c4-c4c(cc(O)c(O)c4O)C(=O)OC[C@H]2O[C@@H](OC(=O)c2cc(O)c(O)c(O)c2)[C@@H]3OC(=O)c2cc(O)c(O)c3c2[C@@H]2C1=CC(=O)[C@](O)(O3)C2(O)O ; strain or isolate: ROD WT ; cells: MAGI ; result: 0.83 µg/mL
Cc1cccc2c1OP(=O)(OC[C@@H]1[C@@H](O)CC[C@@H]1n1cc(C)c(=O)[nH]c1=O)OC2 ; cells: CEM + CEM/0 ; result: 37.5 µM
Cc1cn([C@H]2C=C[C@@H](COP(=O)(O)OP(=O)(O)OP(=O)(O)O)O2)c(=O)[nH]c1=O ; result: 0.97 µM
O=c1[nH]cnc2c1ncn2[C@H]1CC[C@@H](CO)O1 ; strain or isolate: ROD ; cells: MOLT-4/C8 + MOLT-4 ; result: 4.5 µM
Cc1cn([C@H]2C=C[C@@H](COP3(=O)Oc4cccc(Cl)c4C(C)O3)O2)c(=O)[nH]c1=O ; cells: CEM + CEM TK- ; result: 7 µM
O=c1ccn(/C=C/P(=O)(O)O)c(=O)[nH]1 ; strain or isolate: ROD ; cells: CEM + CEM-SS ; result: >200 µM
CC(=O)Oc1ccc(/C=C/C(=O)O[C@H](C(=O)O)[C@H](OC(=O)/C=C/c2ccc(OC(C)=O)c(OC(C)=O)c2)C(=O)O)cc1OC(C)=O ; strain or isolate: ROD ; cells: MT-4 ; result: 5 µM
CCn1nc(Cn2cc(C)c(=O)[nH]c2=O)nc1C ; strain or isolate: ROD ; cells: MT-4 ; result: >68 µg/mL
Cc1cn([C@H]2C=C[C@@H](COP3(=O)OCc4c(Cl)cccc4O3)O2)c(=O)[nH]c1=O ; cells: CEM + CEM/O ; result: 0.15 µM
Cc1cn([C@H]2C[C@H](N=[N+]=[N-])[C@@H](CO)O2)c(=O)[nH]c1=O ; strain or isolate: ROD ; cells: PBMC ; result: <0.01 µM
O=c1[nH]c(=O)n(/C=C/P(=O)(O)O)cc1CO ; strain or isolate: ROD ; cells: CEM + CEM-SS ; result: >200 µM
CC(C)c1cc2c(c(O)c1O)[C@@]1(C(=O)O)CCCC(C)(C)C1CC2 ; strain or isolate: ROD ; cells: MT-2 ; result: 0.014 µM
Cc1cccc2c1OP(=O)(OC[C@@H]1C=C[C@H](n3cnc4c(=O)[nH]cnc43)O1)OC2 ; cells: CEM + CEM/0 ; result: 5 µM

3 of the rows above, restated:

| structure | strain or isolate | cells | result |
|---|---|---|---|
| COC(=O)[C@H](C)NP(=O)(OC[C@@H]1CC[C@H](n2cnc3c(N)ncnc32)O1)Oc1ccccc1 | ROD | MOLT-4/C8 + MOLT-4 | 0.05 µM |
| Cc1cccc2c1OP(=O)(OC[C@@H]1[C@@H](O)CC[C@@H]1n1cc(C)c(=O)[nH]c1=O)OC2 | - | CEM + CEM/0 | 37.5 µM |
| COC(=O)[C@H](C)NP(=O)(OC[C@@H]1C=C[C@H](n2cc(C)c(=O)[nH]c2=O)O1)Oc1ccccc1 | - | CEM | 0.075 µM |